Anti-infective test results gathered from many reports (values: NIAID ChemDB through PubChem).

Shared fields: tests on isolated targets

An empty or dashed field is not shown.

{"smiles": "CC1(C)C2CC[C@@H](CNc3nnc(NC(=O)c4ccc5c(c4)C(=O)OC5=O)s3)C1C2", "species": "Human cytomegalovirus", "protein": "Polymerase", "endpoint": "IC50", "result": "<25 µM"}
{"smiles": "Cc1[nH]c(=O)[nH]c(=O)c1[N+](=O)[O-]", "strain or isolate": "RH", "dose": "2000 µM", "species": "Toxoplasma gondii", "protein": "Uracil phosphoribosyltransferase", "endpoint": "inhibition", "result": "<10%"}
{"smiles": "CC(C)=CCOc1cc(NC(=S)c2ccoc2C)ccc1Cl", "read by": "nucleotide incorporation / radiometric", "changes": "RT-N137H", "species": "HIV", "protein": "Reverse transcriptase", "endpoint": "IC50", "result": "0.048 µM"}
{"smiles": "CC(C)c1cc(C(C)C)c(C(=O)Nc2nnc(NCCCn3ccnc3)s2)c(C(C)C)c1", "species": "Human cytomegalovirus", "protein": "Polymerase", "endpoint": "IC50", "result": "<25 µM"}
{"smiles": "CC(=O)c1cnccn1", "strain or isolate": "RH", "dose": "2000 µM", "species": "Toxoplasma gondii", "protein": "Uracil phosphoribosyltransferase", "endpoint": "inhibition", "result": "<10%"}
{"smiles": "Cc1cn([C@@H]2O[C@H](CO[Si](C)(C)C(C)(C)C)[C@@]3(OS(=O)(=O)C=C3N)[C@H]2O[Si](C)(C)C(C)(C)C)c(=O)[nH]c1=O", "read by": "nucleotide incorporation / radiometric", "changes": "RT-N137Y", "species": "HIV", "protein": "Reverse transcriptase", "endpoint": "fold resistance", "result": "0.26"}
{"smiles": "CCN(C(=O)OCc1ccccc1)C1CCN(CC[C@](C)(CN(C)S(=O)(=O)c2ccccc2)c2ccccc2)CC1", "read by": "radiometric", "changes": "CCR5-D276A", "protein": "CCR5", "endpoint": "fold resistance", "result": "5.75"}
{"smiles": "O=C(O)c1c(O)cncc1O", "strain or isolate": "RH", "species": "Toxoplasma gondii", "protein": "Uracil phosphoribosyltransferase", "endpoint": "IC50", "result": ">2000 µM"}
{"smiles": "O=C(C1CCCCC1)N1C[C@H](CN2CCC(c3ccccc3)CC2)[C@@H](c2ccccc2)C1", "read by": "radiometric", "changes": "CCR5-E283A", "protein": "CCR5", "endpoint": "fold resistance", "result": ">434.8"}
{"smiles": "CC[C@H]1C(=O)Nc2ccc(F)cc2N1C(=O)OC(C)C", "read by": "nucleotide incorporation / radiometric", "changes": "RT-N137S", "species": "HIV", "protein": "Reverse transcriptase", "endpoint": "IC50", "result": "0.021 µM"}
{"smiles": "O=c1cc(Cc2ccccc2)[nH]c(=O)[nH]1", "strain or isolate": "RH", "species": "Toxoplasma gondii", "protein": "Uracil phosphoribosyltransferase", "endpoint": "IC50", "result": ">2000 µM"}
{"smiles": "CCCCCCCC/C=C/CCCCCCCC(=O)Nc1nnc(NC2CCCc3ccccc32)s1", "species": "Human cytomegalovirus", "protein": "Polymerase", "endpoint": "IC50", "result": "<25 µM"}
{"smiles": "O=C(c1ccccc1Cl)N1C[C@H](CN2CCC(O)(CCCc3ccc(-c4nn[nH]n4)cc3)CC2)[C@@H](c2ccccc2)C1", "read by": "radiometric", "changes": "CCR5-Y251A", "protein": "CCR5", "endpoint": "fold resistance", "result": "5"}
{"smiles": "CC(C)c1cc(C(C)C)c(C(=O)Nc2nnc(NCc3ccc(S(N)(=O)=O)cc3)s2)c(C(C)C)c1", "species": "Human cytomegalovirus", "protein": "Polymerase", "endpoint": "IC50", "result": "<25 µM"}
{"smiles": "O=c1c[n+]([O-])cc[nH]1", "strain or isolate": "RH", "species": "Toxoplasma gondii", "protein": "Uracil phosphoribosyltransferase", "endpoint": "Ki", "result": "270 µM"}

A second listing of 2 rows from above:

smiles | read by | changes | strain or isolate | dose | species | protein | endpoint | result
CCCCCCCC/C=C/CCCCCCCC(=O)Nc1nnc(NC2CCCc3ccccc32)s1 | - | - | - | - | Human cytomegalovirus | Polymerase | IC50 | <25 µM
CC(=O)c1cnccn1 | - | - | RH | 2000 µM | Toxoplasma gondii | Uracil phosphoribosyltransferase | inhibition | <10%

ICn is the concentration giving n% inhibition. Fold resistance: result on the changed form divided by that on wild type. Inhibition is in % at the dose shown (toxicity tests: loss of growth or viability). Conditions beyond the fields shown may differ between rows.